Values of other authors as cited in article PMC9435674, “Delineating the activity of the potent nicotinic acetylcholine receptor agonists (+)-anatoxin-a and (−)-hosieine-A” (2022).

Test system: mice
Conditions: intraperitoneal injection, ref Devlin et al., 1977, Christensen & Khan, 2020

Which LD50 does the source give for `CC(=O)C1=CCCC2CCC1N2` (single isomer, unassigned) here?
The LD50 was 0.2 to 0.25 mg/kg.
